Measured values from several laboratories, pooled; numbers as filed in NIAID ChemDB.

Common to all: whole-cell or culture tests; organism: HIV-1; cells: MT-4; endpoint: EC50

a–b is a range or a potency band. An empty or dashed field is not shown. ECn is the concentration giving n% inhibition of infection, replication or growth. Lines come from different laboratories, so protocols vary.

structure	strain or isolate	mutations	method	setting	result
CNC(=O)c1ccc(-c2ccc(C[C@H](NC[C@@H](NC(=O)OC)C(C)(C)C)[C@@H](O)C[C@H](Cc3ccccc3)NC(=O)[C@@H](NC(=O)OC)C(C)(C)C)cc2)cc1	pNL4-3	-	MTT	-	4 nM
CC(C)(C)c1ccc(-c2ncccc2OCC(=O)Nc2ccc(S(N)(=O)=O)cc2)cc1	IIIB	-	MTT / absorbance	-	>270 µM
COC(=O)N[C@H](C(=O)N[C@@H](Cc1ccccc1)C[C@H](O)[C@H](Cc1ccc(-c2cccc(CO)c2)cc1)NC[C@@H](NC(=O)OC)C(C)(C)C)C(C)(C)C	pNL4-3	-	MTT	50% human serum	92 nM
Cc1cc(Br)cc(C)c1Oc1ncc([N+](=O)[O-])c(Nc2ccc(C#N)cc2)n1	RES056	-	MTT	-	>202.3 µM
COC(=O)N[C@H](C(=O)N[C@@H](Cc1ccccc1)C[C@H](O)[C@H](Cc1ccc(-c2ccc(N)cc2)cc1)NC[C@@H](NC(=O)OC)C(C)(C)C)C(C)(C)C	pNL4-3	-	MTT	-	6 nM
CCc1c(Cc2cc(C)cc(C)c2)n(COCC#CC#CCO[Si](c2ccccc2)(c2ccccc2)C(C)(C)C)c(=O)[nH]c1=O	IIIB	K103N + Y181C	MTT	-	>76 µM
CN1CCN(CCCCN2c3ccccc3C3C2C=C(C#N)C(=O)N3c2ccc([N+](=O)[O-])cc2)CC1	LAI	-	cytopathic effect / MTT	-	1–32 µM
CC1C(=S)Nc2ccc(Cl)cc2S(=O)(=O)N1Cc1c(F)cccc1F	-	-	cytopathic effect / MTT	-	9 µM
CC(=O)Nc1cnc(Oc2c(C)cc(C=O)cc2C)nc1Nc1ccc(C#N)cc1	RES056	-	MTT	-	>236 µM
COC(=O)N[C@H](C(=O)N[C@@H](Cc1ccccc1)C[C@H](O)[C@H](Cc1ccc(-c2ccc(CO)nc2)cc1)NC[C@@H](NC(=O)OC)C(C)(C)C)C(C)(C)C	pNL4-3	-	MTT	-	14 nM
Cc1cc(Br)cc(C)c1Oc1ncc(N)c(Nc2ccc(C#N)cc2)n1	IIIB	-	MTT	-	0.046 µM
O=C(COc1cccnc1-c1cccc2ccccc12)Nc1cccnc1Cl	RES056	-	MTT / absorbance	-	>179 µM
CCc1c(Cc2cc(C)cc(C)c2)n(COCC#Cc2cccc(CO[Si](c3ccccc3)(c3ccccc3)C(C)(C)C)c2)c(=O)[nH]c1=O	IIIB	WT	MTT	-	0.6 µM
CCN1CC(=O)Nc2ccc(Cl)cc2S1(=O)=O	-	-	cytopathic effect / MTT	-	36 µM
N#Cc1ccc(Nc2nc(Oc3c(Cl)cccc3Cl)ncc2N)cc1	RES056	-	MTT	-	>33 µM
CC1C(=S)Nc2ccc(Cl)cc2S(=O)(=O)N1CC1CC1	-	-	cytopathic effect / MTT	-	10 µM
CC(=O)NS(=O)(=O)c1ccc(-c2c3nc(c(-c4ccc(S(=O)(=O)NC(C)=O)cc4)c4ccc([nH]4)c(-c4ccc(S(=O)(=O)NC(C)=O)cc4)c4nc(c(-c5ccc(S(=O)(=O)NC(C)=O)cc5)c5ccc2[nH]5)C=C4)C=C3)cc1	IIIB	-	cytopathic effect / MTT	-	>35 µg/mL
CCc1c(Cc2cc(C)cc(C)c2)n(COCC#Cc2cccs2)c(=O)[nH]c1=O	IIIB	K103N + Y181C	MTT	-	5 µM
COC(=O)N[C@H](C(=O)N[C@@H](Cc1ccccc1)C[C@H](O)[C@H](Cc1ccc(-c2cccnc2)cc1)NC[C@@H](NC(=O)OC)C(C)(C)C)C(C)(C)C	pNL4-3	-	MTT	-	11 nM
C#CCOCn1c(Cc2c(F)c(F)cc(F)c2F)c(CC)c(=O)[nH]c1=O	N119 (Y181C)	-	MTT	-	>5 µM
Nc1ncnc2c1ncn2[C@H]1C[C@@H](OCCP(=O)(O)O)CO1	-	-	-	-	>250 µM
C=CCOCn1c(Cc2cc(F)ccc2F)c(CC)c(=O)[nH]c1=O	EFV-resistant (K103R V179D P225H)	-	MTT	-	70 µM
Cc1cc(C=O)cc(C)c1Oc1ncc([N+](=O)[O-])c(Nc2ccc(C#N)cc2)n1	IIIB	-	MTT	-	0.61 µM
C#CCOCn1c(Cc2cccc(C(F)(F)F)c2)c(C(C)C)c(=O)[nH]c1=O	EFV-resistant (K103R V179D P225H)	-	MTT	-	>46 µM
CN1c2ccccc2C2C1C=C(Cl)C(=O)N2c1ccc(C(=O)O)cc1	LAI	-	cytopathic effect / MTT	-	1–32 µM
C=CCN1C(C)C(=S)Nc2ccc(Cl)cc2S1(=O)=O	-	-	cytopathic effect / MTT	-	>16 µM
Cc1ccnc2c1NC(=O)c1cccnc1N2C1CC1	IIIB	-	MTT	-	0.22 µM
COC(=O)N[C@H](C(=O)N[C@@H](Cc1ccccc1)C[C@H](O)[C@H](Cc1ccc(-c2cccc(N)c2)cc1)NC[C@@H](NC(=O)OC)C(C)(C)C)C(C)(C)C	pNL4-3	-	MTT	50% human serum	20 nM
Cc1cn([C@H]2C[C@@H](OCP(=O)(O)O)CO2)c(=O)[nH]c1=O	-	-	-	-	6.59 µM
O=C(COc1cccnc1-c1cccc2ccccc12)Nc1ccccc1	IIIB	-	MTT / absorbance	-	>20.2 µM
O=C1Nc2ccc(Cl)cc2[C@@](C#CC2CC2)(C(F)(F)F)O1	-	F227L + V106A	MTT	-	0.255 µM
C=CCOCn1c(Cc2cc(C(F)(F)F)cc(C(F)(F)F)c2)c(C(C)C)c(=O)[nH]c1=O	N119 (Y181C)	-	MTT	-	13 µM
Cc1cc(C)c(Oc2ncc(NC(=O)C(F)(F)F)c(Nc3ccc(C#N)cc3)n2)c(C)c1	RES056	-	MTT	-	32 µM
COC(=O)c1ccc(NC(=O)COc2cccnc2-c2cccc3ccccc23)c([N+](=O)[O-])c1	IIIB	-	MTT / absorbance	-	>62 µM
CCc1c(Cc2ccccc2C)n(COCC#Cc2ccc(N)cc2)c(=O)[nH]c1=O	IIIB	WT	MTT	-	0.07 µM
COC(=O)N[C@H](C(=O)N[C@@H](Cc1ccccc1)C[C@H](O)[C@H](Cc1ccc(-c2ccc(OC)cc2)cc1)NC[C@@H](NC(=O)OC)C(C)(C)C)C(C)(C)C	pNL4-3	-	MTT	50% human serum	3 nM
O=c1oc2cc(O)c(O)cc2c(O)c1-c1coc2c1c(=O)oc1cc(O)c(O)cc12	IIIB	-	MTT	-	5 µM
CCOC(=O)CN(CC)S(=O)(=O)c1cc(Cl)ccc1N	-	-	cytopathic effect / MTT	-	>200 µM
Cc1cc(C)c(S(N)(=O)=O)c(C)c1-c1c2nc(c(-c3c(C)cc(C)c(S(N)(=O)=O)c3C)c3ccc([nH]3)c(-c3c(C)cc(C)c(S(N)(=O)=O)c3C)c3nc(c(-c4c(C)cc(C)c(S(N)(=O)=O)c4C)c4ccc1[nH]4)C=C3)C=C2	IIIB	-	cytopathic effect / MTT	-	>80 µg/mL
CCOCn1c(Cc2cccc(F)c2)c(CC)c(=O)[nH]c1=O	A17	K103N + Y181C	MTT	-	68 µM
C=CCCN1c2ccccc2C2C1C=C(C#N)C(=O)N2c1ccc([N+](=O)[O-])cc1	LAI	-	cytopathic effect / MTT	-	<1 µM
NS(=O)(=O)c1ccc(NC(=O)COc2cccnc2-c2cccc3ccccc23)cc1	IIIB	-	MTT / absorbance	-	41.5 µM
Cc1nc(-c2ccc(N3C(=O)C(Br)=CC4C3c3ccccc3N4C)cc2)no1	LAI	-	cytopathic effect / MTT	-	1–32 µM
CC(=O)N(C)c1nc(C(=O)NCc2ccc(F)cc2)c(O)c2ncccc12	-	-	p24	10% FBS	<0.125 µM